Laboratory results published in patent US20210363204A1.

Molecular target: human Nav1.7 (human), Q15858
Experiment: cell-based or functional assay

B1: NV1G1137 (peptide)
peptide: GPQCQKWMQTCDAERKCCEGFSCTLWCKKKLW
modifications: not checked
Nav1.7 IC50, FLIPR Tetra membrane depolarization: 0.0957 µM
